Results deposited as PubChem BioAssay AID504761 (Drosophila RNAi Screening Center, 2011).

Purpose: 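Insect host genes that dengue virus relies on to spread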 (primary screen)
Cell system: D.Mel-2 cells from Drosophila
Reagent: long dsRNA against Drosophila genes
Treatment: infection with dengue virus type 2; dose and infection time not stated
Detection: 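Cells stained for dengue envelope protein and imaged; percent of infected cells per well on duplicate plates, ranked by infection, with stained nuclei counted for cell number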
Scale: infection score: higher = more virus-infected cells
Call rule: 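Low infection ranks in the two replicates (chance level up to 0.065) followed by a retest with a 1.5-fold or larger significant decrease, p below 0.05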
Meaning of the calls: active = confirmed: knock-down lowers infection; inactive = not picked or not confirmed
The deposit covers about 22,000 reagents; shown is an unselected part of those that have a named target and a result. In the full data, 116 (0.52%) were called active. 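Calls depend on retest data that are not deposited; infection was ranked per plate without normalising between plates; the unit of the infection score is not given.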 Not all columns of the deposit are shown. Not given: the amount of reagent, the time to read-out.

For CG8840 [DRSC00713] the deposit lists infection score, replicate 1 = 24.5; inactive.
Against Pgant9 (Polypeptide N-Acetylgalactosaminyltransferase 9) [DRSC05621], the entry reads infection score, replicate 1 = 0.96; inactive.
After knock-down of Pgant9 (Polypeptide N-Acetylgalactosaminyltransferase 9) [DRSC06584] the results were infection score, replicate 1 = 6.67; inactive.
Pgant9 (Polypeptide N-Acetylgalactosaminyltransferase 9) [DRSC07185] scored infection score, replicate 1 = 7.07; inactive.
Pgant9 (Polypeptide N-Acetylgalactosaminyltransferase 9) [DRSC07186] gave infection score, replicate 1 = 15.2; inactive.
Pgant9 (Polypeptide N-Acetylgalactosaminyltransferase 9) [DRSC07187] gave infection score, replicate 1 = 25.7; inactive.
Against Pgant9 (Polypeptide N-Acetylgalactosaminyltransferase 9) [DRSC07189], the values are infection score, replicate 1 = 21.6; inactive.
After knock-down of CG14797 [DRSC17955], the record shows infection score, replicate 1 = 20.6; inactive.
CG2162 [DRSC08557] showed infection score, replicate 1 = 11.7; inactive.
Silencing of CG2162 [DRSC25030] gave: infection score, replicate 1 = 6.74; inactive.
With knock-down of CG9682 [DRSC16536] the results were infection score, replicate 1 = 14.4; inactive.
For CG9682 [DRSC25635] the deposit lists infection score, replicate 1 = 6.22; inactive.
With knock-down of Pdrg1 (Pdrg1 prefoldin-like subunit) [DRSC28485], the record shows infection score, replicate 1 = 4.61; inactive.
After knock-down of CG16779 [DRSC15153], the screen gave infection score, replicate 1 = 1.69; inactive.
Hmg-2 (High mobility group protein 2) [DRSC04554] gave infection score, replicate 1 = 18.1; inactive.
Hmg-2 (High mobility group protein 2) [DRSC25355] showed infection score, replicate 1 = 4.03; inactive.
RNF220 (ring finger protein 220) [DRSC15652] gave infection score, replicate 1 = 1.7; inactive.
RNF220 (ring finger protein 220) [DRSC28017] scored infection score, replicate 1 = 16.9; inactive.
Against Cdk7 (Cyclin-dependent kinase 7) [DRSC18451], the values are infection score, replicate 1 = 1.05; inactive.
Knock-down of Cdk7 (Cyclin-dependent kinase 7) [DRSC23327] resulted in: infection score, replicate 1 = 4.47; inactive.
With knock-down of CG17819 [DRSC15279], the record shows infection score, replicate 1 = 3.66; inactive.
With knock-down of Srp19 (Signal recognition particle 19) [DRSC11288] the results were infection score, replicate 1 = 0.95; inactive.
Against Srp19 (Signal recognition particle 19) [DRSC24706], the entry reads infection score, replicate 1 = 0.53; inactive.
Against CG13937 [DRSC08406], the entry reads infection score, replicate 1 = 9.07; inactive.
CG14627 [DRSC18630] gave infection score, replicate 1 = 8.78; inactive.
eve (even skipped) [DRSC24980] showed infection score, replicate 1 = 2.77; inactive.
mus81 [DRSC18180] gave infection score, replicate 1 = 7.37; inactive.
After knock-down of mus81 [DRSC18644] the results were infection score, replicate 1 = 4.45; inactive.
